Compound potency records, mixed from different reports. Data source: NIAID ChemDB in PubChem.

All rows: growth or infection tests; organism: Candida albicans

Blank or dashed fields: not listed here.

smiles | strain | method | setting | read-out | tested at | result
C[C@@H](N1CCN(Cc2cn(Cc3cccc(C(F)(F)F)c3)c3c(F)cccc23)CC1)[C@](O)(Cn1cncn1)c1ccc(F)cc1F | ATCC 90028 | resazurin |  | MIC80 |  | 0.125 µg/mL
COc1ccc(-c2oc3ccc(C)cc3c2C(=O)c2ccccc2Br)cc1 |  | broth dilution |  | EC80 |  | >200 µg/mL
CCCCCOc1ccc(-c2cc(-c3ccc(C(=O)N[C@H]4C[C@@H](O)[C@@H](O)NC(=O)[C@@H]5[C@@H](O)[C@@H](C)CN5C(=O)[C@H]([C@H](O)CC(N)=O)NC(=O)[C@H]([C@H](O)[C@@H](O)c5ccc(O)c(OS(=O)(=O)O)c5)NC(=O)[C@@H]5C[C@@H](O)CN5C(=O)[C@H]([C@@H](C)O)NC4=O)cc3)no2)cc1 | Fluconazole-resistant 4 isolates pooled |  |  | MFC90 |  | 0.5 µg/mL
C[C@@H](N1CCN(Cc2cn(Cc3ccc(F)cc3F)c3ccc(C#N)cc23)CC1)[C@](O)(Cn1cncn1)c1ccc(F)cc1F | ATCC 36082 | resazurin |  | MIC80 |  | 0.125 µg/mL
NC(=NC1CCCC1)c1ccc(-c2ccc(-c3ccc(C(N)=NC4CCCC4)cc3)o2)cc1 | Isolate 1866 |  |  | MFC |  | 25 µg/mL
C[C@@H](c1ncncc1F)[C@](O)(Cn1cncn1)c1ccc(F)cc1F | 10 isolates | broth dilution | pH 7 | EC90 |  | 0.5 µg/mL
COc1ccc(-c2oc3ccc(C)cc3c2C(=O)c2cc(O)cc(OC)c2)cc1 |  | broth dilution |  | EC80 |  | >200 µg/mL
CC[C@@H]([C@H](C)O)n1ncn(-c2ccc(N3CCN(c4ccc(OC[C@@H]5CO[C@@](Cn6cncn6)(c6ccc(F)cc6F)C5)cc4)CC3)cc2)c1=O | 10 isolates | broth dilution | pH 6 | EC90 |  | 0.06 µg/mL
C=CCc1ccc(O)c(OC)c1 | 2874 | turbidity |  | MIC90 |  | 485 µg/mL
CCC(C)CC(C)CCCCCCCCC(=O)N[C@H]1C[C@@H](O)[C@H](NCCN)NC(=O)[C@@H]2[C@@H](O)CCN2C(=O)[C@H]([C@H](O)CCN)NC(=O)[C@H]([C@H](O)[C@@H](O)c2ccc(O)cc2)NC(=O)[C@@H]2C[C@@H](O)CN2C(=O)[C@H]([C@@H](C)O)NC1=O | 10 strains (fluconazole-resistant) |  |  | MFC90 |  | 2 µg/mL
C[C@@H](N1CCN(Cc2cn(Cc3ccc(F)cc3)c3c(F)cccc23)CC1)[C@](O)(Cn1cncn1)c1ccc(F)cc1F | ATCC 64548 | resazurin |  | MIC80 |  | 0.125 µg/mL
CC(C)(O)c1cn(-c2cccc3ccccc23)nn1 | URM 4990 | broth dilution |  | inhibition | 2048 µg/mL | 0%
CSc1ccc(C(c2nccc3ccccc23)n2ccnc2)cc1.O=[N+]([O-])O | 44 strains |  |  | MIC90 |  | 256 µg/mL
C=CCc1ccc(Cn2cc(CN3CCN([C@H](C)[C@](O)(Cn4cncn4)c4ccc(F)cc4F)CC3)c3ccccc32)cc1 | ATCC MYA-1003 | resazurin |  | MIC80 |  | 32 µg/mL
OC(CN1CCN(c2ccc(OCc3ccncc3)cc2)CC1)(Cn1cncn1)c1ccc(F)cc1F | SC5314F50 |  |  | MIC80 |  | 0.25 µg/mL
Fc1ccc(COc2ccc(C(c3ccc(-c4ccccc4)cc3)n3ccnc3)cc2)c(F)c1.O=[N+]([O-])O | 17 strains |  |  | Mean MIC |  | ≥256 µg/mL
C[C@@H](N1CCN(Cc2cn(Cc3ccc(Cl)cc3Cl)c3cc(Cl)ccc23)CC1)[C@](O)(Cn1cncn1)c1ccc(F)cc1F | ATCC 36082 | resazurin |  | MIC80 |  | 0.125 µg/mL
CC(=O)OC[C@H]1O[C@@H](O[C@@H]2[C@@H](N=[N+]=[N-])[C@H](O)[C@H](O)[C@H]3OC(C)(C)O[C@H]32)[C@H](OC(C)=O)[C@@H](OC(C)=O)[C@H]1OC(C)=O | ATCC 10231 | broth dilution / turbidity |  | inhibition | 62.5 µg/mL | 20.01%
NCCCC[C@H](NC(=O)[C@H](CCCN=C(N)N)NC(=O)[C@H](CCCN=C(N)N)NC(=O)[C@H](CCCCN)NC(=O)[C@H](CCCCN)NC(=O)[C@@H](N)CCCCN)C(=O)N[C@@H](CCCN=C(N)N)C(=O)O | ATCC 10231 |  |  | inhibition | 25 µM | 0%
Clc1ccc(COc2ccc(C(c3cccc4ccccc34)n3ccnc3)cc2)c(Cl)c1.O=[N+]([O-])O | 17 strains |  |  | MIC90 |  | ≥256 µg/mL
C[C@H]1[C@H](O)[C@@H](C)/C=C/C=C/C=C/C=C/C=C/C=C/C=C/[C@H](O[C@@H]2O[C@H](C)[C@@H](O)[C@H](N)[C@@H]2O)C[C@@H]2O[C@](O)(C[C@@H](O)C[C@@H](O)CC[C@H](O)[C@@H](O)C[C@@H](O)CC(=O)O[C@H]1C)C[C@H](O)[C@H]2C(=O)O | A28235 |  |  | MFC99 |  | 0.5 µg/mL
CC[C@@H]([C@H](C)O)n1ncn(-c2ccc(N3CCN(c4ccc(OC[C@@H]5CO[C@@](Cn6cncn6)(c6ccc(F)cc6F)C5)cc4)CC3)cc2)c1=O | 17 isolates fluconazole-susceptible |  |  | Geometric mean MIC |  | 0.015 µg/mL
CC(C)(O)c1cn(-c2ccc3ccccc3c2)nn1 | URM 4385 | broth dilution |  | inhibition | 2048 µg/mL | 0%
C[C@@H](N1CCN(Cc2cn(Cc3ccc(Cl)cc3)c3c(F)cccc23)CC1)[C@](O)(Cn1cncn1)c1ccc(F)cc1F | ATCC 36082 | resazurin |  | MIC80 |  | 0.125 µg/mL
Cc1ccc(C(c2nccc3ccccc23)n2ccnc2)cc1 | 44 strains |  |  | Mean MIC |  | 101.2 µg/mL
Cc1ccc(C(C)C)cc1O | M1 |  |  | MLC |  | 0.32 µg/mL
COC(=O)[C@H]1[C@@H]2C[C@@H](O[C@@H]3O[C@H](C)[C@@H](O)[C@H](N)[C@@H]3O)/C=C/C=C/C=C/C=C/C=C/C=C/C=C/[C@H](C)[C@@H](O)[C@H](C)[C@H](C)OC(=O)C[C@H](O)C[C@H](O)[C@@H](O)CC[C@H](O)C[C@H](O)C[C@](O)(C[C@@H]1O)O2 | 15 isolates | broth dilution | pH 5 | EC90 |  | 4 µg/mL
CC(C)(O)c1cn(-c2ccc([N+](=O)[O-])cc2)nn1 | URM 4986 | broth dilution |  | inhibition | 2048 µg/mL | 0%
Clc1ccc(COc2ccc(C(c3nccc4ccccc34)n3ccnc3)cc2)c(Cl)c1 | 16 strains |  |  | MIC90 |  | ≥256 µg/mL
COc1ccc(-c2oc3ccc(C)cc3c2C(=O)c2ccc(Cl)cc2)cc1 |  | broth dilution |  | EC80 |  | >200 µg/mL
Fc1ccc(COc2ccc(C(c3nccc4ccccc34)n3ccnc3)cc2)c(F)c1 | 16 strains |  |  | MIC90 |  | ≥256 µg/mL
C[C@@H](N1CCN(Cc2cn(Cc3ccc(F)cc3F)c3ccccc23)CC1)[C@](O)(Cn1cncn1)c1ccc(F)cc1F | ATCC 36082 | resazurin |  | MIC80 |  | 0.125 µg/mL
COc1ccc(C(=O)c2c(-c3ccc(OC)cc3)oc3ccc(C)cc23)cc1 |  | broth dilution |  | EC80 |  | >200 µg/mL
Clc1ccc(COc2ccc(C(c3ccc(-c4ccccc4)cc3)n3ccnc3)cc2)c(Cl)c1.O=[N+]([O-])O | 17 strains |  |  | MIC90 |  | ≥256 µg/mL
Oc1ccc2cc1Oc1ccc(cc1)CCc1ccc(c(O)c1)-c1c(O)cccc1CC2 | CA2 | broth dilution |  | MIC80 |  | 32 µg/mL
C[C@@H](N1CCN(Cc2cn(Cc3ccc(C(F)(F)F)cc3)c3c(F)cccc23)CC1)[C@](O)(Cn1cncn1)c1ccc(F)cc1F | ATCC MYA-1003 | resazurin |  | MIC80 |  | >128 µg/mL
Fc1ccccc1COc1ccc(C(c2nccc3ccccc23)n2ccnc2)cc1 | 17 strains |  |  | Mean MIC |  | 41.3 µg/mL

Percent inhibition refers to the dose given; in toxicity tests it is the harm to the cells. MIC50, MIC90 and the like: level of inhibition, or share of isolates inhibited. ECn: concentration that inhibits the pathogen or its effect by n%. Neighbouring rows are from separate reports.